These results are taken from PubChem BioAssay AID624483 (NMMLSC, 2012).

This is a selection; strong and weak results do not stand in their true shares. Activity calls are given as the source filed them. Rule as the data show it: active = fluorescence intensity above about 16000; inconclusive = no clear call, values can overlap the other calls; inactive = below that.

This test in a line: compound fluorescence in toxin protease inhibitor counterscreen, primary screen, artefact control for toxin protease inhibitor project, biochemical, multiplex microsphere, HTS (AID 624483). Also: test concentration not given here. The settings on record: compound autofluorescence counterscreen, microsphere flow cytometry; active compounds read high. For orientation: A counterscreen serves to expose hits that act by an unwanted route or on another target.
For `Cc1cccc(C)c1OP(C)(N)=O` (stereo not drawn), the fluorescence intensity is inactive: 3210.
With `[N-]=[N+]=NC1CCCCC1NC(=O)c1cc([N+](=O)[O-])cc([N+](=O)[O-])c1` (stereo not drawn) the figure was inactive: 6020; with `Cc1ccc(OP(=O)(Nc2ccc([N+](=O)[O-])cn2)Oc2ccc(C)cc2)cc1`, inactive: 3060; with `CC(C)(C)c1ccc(OP(C)(=O)Nc2ccc(SC(F)(F)F)cc2)cc1` (stereo not drawn), inactive: 2640.
With `O=[N+]([O-])c1ccc2c(c1)C=Nc1ccccc1O2` the figure was inactive: 2130; with `Cc1ccc2nc3c(c(C)c2c1)CC(C(Cl)Cl)S3` (stereo not drawn), inactive: 2550.
`O=[N+]([O-])c1cc([N+](=O)[O-])c(Nc2cccnc2)c([N+](=O)[O-])c1`: the fluorescence intensity was inactive: 4020.
With `O=[N+]([O-])c1ccc(-c2cc([N+](=O)[O-])c(O)c([N+](=O)[O-])c2)cc1` the figure was inactive: 2860; with `COc1cc(C(=O)NCC2(N3CCOCC3)CCCCC2)ccc1OCC(C)C`, inactive: 6560; with `C[As](=O)(O)c1cccc(C(=O)O)c1`, inactive: 3520.
The result for `O=[As](O)(c1ccc(O)cc1)c1ccccc1O` reads inactive: 4510.
The result for `COc1ccc(OP(C)(=O)Nc2cccc(F)c2)cc1` (stereo not drawn) reads inactive: 4030; that for `O=[N+]([O-])c1cc([N+](=O)[O-])c(-c2ccn[nH]2)s1`, inactive: 2090.
Turning to `COc1ccccc1OP(C)(=O)Nc1cc(Cl)ccc1C` (stereo not drawn), the fluorescence intensity is inactive: 5020.
As to `CC(C)NC(=O)NP(=O)(Oc1ccccc1)Oc1ccccc1`, the fluorescence intensity is inactive: 3540.
With `O=C(OC1CN2CCC1CC2)c1cccc2[nH]cnc12` (stereo not drawn) the figure was inactive: 3360; with `CCN(CC)C(=S)SC(NC=O)C(Cl)(Cl)Cl` (stereo not drawn), inactive: 5580.
The result for `Cc1cc(C)cc(OP(C)(N)=O)c1` (stereo not drawn) reads inactive: 4610; that for `ClCCSc1nnc(-c2cccnc2)o1`, inactive: 8080; that for `CCOC(=O)c1ccc(NP(C)(=O)Oc2ccccc2)cc1` (stereo not drawn), inactive: 2620.
For the molecule `COC(=O)C1(C)COP(=O)(N2CCCCCC2)OC1` (stereo not drawn), the fluorescence intensity is inactive: 4030.
For `CC(C)c1ccc(OP(=O)(Nc2ccccn2)Oc2ccccc2F)cc1` (stereo not drawn), the fluorescence intensity was inactive: 4680.
With `Cc1ccc(NP(C)(=O)Oc2ccccc2)c(C)c1` (stereo not drawn) the figure was inactive: 2980.
Regarding `COc1ccccc1OP(C)(=O)Nc1ccc(C)cc1` (stereo not drawn), the fluorescence intensity is inactive: 2340.
With `O=P1(N(CCCl)CCCl)OCCCN1CCCl` (stereo not drawn) the figure was inactive: 4090; with `O=P1(N(CCCl)CCCl)Nc2ccccc2N1`, inactive: 2830.
With `COc1cc(I)ccc1[As](=O)(O)O` the figure was inactive: 4060; with `COc1ccc2nc(NP(=O)(c3ccccc3)c3ccccc3)sc2c1`, inactive: 4360; with `Cc1c2c(nc3ccccc13)SC(C(Cl)Cl)C2` (stereo not drawn), inactive: 2610.
For the molecule `CCN(CC)CCCOC(=O)C(O)(c1ccccc1)c1ccccc1`, the fluorescence intensity was inactive: 3230.
In the case of `Cc1cc(=O)[nH]c(N[N+](=O)[O-])n1`, the fluorescence intensity is inactive: 2080.
With `O=C(OC1CN2CCC1CC2)C12CC3CC(CC(C3)C1)C2` (stereo not drawn) the figure was inactive: 3840; with `O=[N+]([O-])c1cc(Oc2ccc([N+](=O)[O-])cc2C(F)(F)F)cc([N+](=O)[O-])c1`, inactive: 3800; with `COc1ccccc1-c1ccccn1.O=[N+]([O-])c1cc([N+](=O)[O-])c(O)c([N+](=O)[O-])c1`, inactive: 5920.
With `COc1ccc(N/C(=N/P(=O)(N2CCOCC2)N2CCOCC2)N2CCOCC2)cc1` the figure was inactive: 3850; with `O=C(Nc1ccncc1[N+](=O)[O-])c1ccc([N+](=O)[O-])cc1[N+](=O)[O-]`, inactive: 4020; with `Cc1cc(C)cc(OP(C)(=O)Nc2ccc(SC(F)(F)F)cc2)c1` (stereo not drawn), inactive: 2080.
Consider `O=C(COc1ccccc1)OC1CN2CCC1CC2` (stereo not drawn), for which the fluorescence intensity is inactive: 4550.
As to `CP(=O)(NC(=O)Nc1ccccc1)Oc1ccccc1` (stereo not drawn), the fluorescence intensity is inactive: 6990.
The result for `CCc1ccc(OP(C)(=O)N2CCN(c3ccc([N+](=O)[O-])cc3)CC2)cc1` (stereo not drawn) reads inactive: 4060; that for `CP(=O)(Oc1ccccc1)OC(c1ccccc1)C(F)(F)F` (stereo not drawn), inactive: 4340; that for `COC(=O)C1(C)COP(=O)(N2CCCC2)OC1` (stereo not drawn), inactive: 6670.
With `COP1(=S)c2c(C)nn(CCC#N)c2N=C(c2ccc(F)cc2)N1C` (stereo not drawn) the figure was inactive: 11000; with `Cc1cccc(C)c1OP(C)(=O)Nc1ccc(SC(F)(F)F)cc1` (stereo not drawn), inactive: 2390.
Take `Cc1ccc(Nc2c([N+](=O)[O-])cc([N+](=O)[O-])cc2[N+](=O)[O-])cc1`: the fluorescence intensity was inactive: 3670.
With `CP(=O)(Nc1ccc(SC(F)(F)F)cc1)Oc1ccc(Cl)cc1` (stereo not drawn) the figure was inactive: 6030.
In the case of `CCC(C)N(CC(C)C)C(=S)SC(NC(C)=O)C(Cl)(Cl)Cl` (stereo not drawn), the fluorescence intensity is inactive: 4510.
The result for `CP(=O)(Nc1ccccn1)Oc1ccc(Cl)cc1` (stereo not drawn) reads inactive: 4130; that for `CSc1ccc(Nc2c([N+](=O)[O-])cc([N+](=O)[O-])cc2[N+](=O)[O-])cc1`, inactive: 3550; that for `O=C(OC1CN2CCC1CC2)c1cccc([N+](=O)[O-])c1` (stereo not drawn), inactive: 3880.
For the molecule `CCOP(C)(=S)SCC(=O)NC(C)C(=O)O` (stereo not drawn), the fluorescence intensity was inactive: 2830.
The result for `CCOC(=O)c1ccc(NC(=O)C(C)(CCl)SC)cc1` (stereo not drawn) reads inactive: 3580.
Consider `CCOC(=O)c1ccc(NP(C)(=O)Oc2ccc(OC)cc2)cc1` (stereo not drawn), for which the fluorescence intensity is inactive: 9010.
Take `COP(=O)(OC)N1CC1c1ccccc1` (stereo not drawn): the fluorescence intensity is inactive: 3670.
With `Cc1cc(SC(NC(=O)c2ccccc2)C(Cl)(Cl)Cl)nc(C(C)C)n1` (stereo not drawn) the figure was inactive: 2080.
The result for `CCCCOc1ccc(C(=O)NCC2(N3CCCCC3)CCCCC2)cc1OC` reads inactive: 8390; that for `O=C(O)C(=O)c1ccc(N(CCCl)CCCl)cc1.c1ccc(Nc2ccccc2)cc1`, inactive: 3450; that for `CCOC(=O)Nc1ccc([As](=O)(O)O)c(O)c1`, inactive: 4060.
With `CC1CCNP(=O)(N(CCCl)CCCl)O1` (stereo not drawn) the figure was inactive: 4080; with `COc1ccccc1OP(C)(=O)Nc1ccccc1` (stereo not drawn), inactive: 4660.
For `O=P(Nc1ccccn1)(c1cccc2ccccc12)c1cccc2ccccc12`, the fluorescence intensity is inactive: 4610.
In the case of `Cc1cc(SC(NC=O)C(Cl)(Cl)Cl)ncn1` (stereo not drawn), the fluorescence intensity is inactive: 2000.
The result for `O=[N+]([O-])c1ccc(Nc2ccc(Oc3ccc([N+](=O)[O-])cc3[N+](=O)[O-])cc2)c([N+](=O)[O-])c1` reads inactive: 4860; that for `CP(=O)(Nc1ccccc1Br)Oc1ccccc1` (stereo not drawn), inactive: 7760; that for `CP(=S)(Nn1cnnc1)Oc1ccccc1` (stereo not drawn), inactive: 2360.
On to `CCOC(=O)Nc1cccc([As](=O)(O)O)c1`, for which the fluorescence intensity is inactive: 2980.
Take `CCOC(=O)C(CC)C1=NC(C)(C)Cc2ccccc21.O=[N+]([O-])c1cc([N+](=O)[O-])c(O)c([N+](=O)[O-])c1` (stereo not drawn): the fluorescence intensity is inactive: 4380.
With `CN(C)C1(CNC(=O)c2ccc(S(C)(=O)=O)cc2)CCCCC1` the figure was inactive: 3240; with `CC1=C2N=C(C=C3N=C(C(C)=C4[N-][C@@](C)([C@@H]5N=C1[C@](C)(CCC(=O)NC[C@@H](C)OP(=O)([O-])O[C@H]1[C@@H](O)[C@@H](n6cnc7cc(C)c(C)cc76)O[C@@H]1CO)[C@H]5CC(N)=O)[C@@](C)(CC(N)=O)[C@@H]4CCC(N)=O)[C@@](C)(CC(N)=O)[C@@H]3CCC(N)=O)C(C)(C)[C@@H]2CCC(N)=O.[C-]#N.[Co+3]`, inactive: 5570.
With `O=[N+]([O-])c1cc([N+](=O)[O-])c(Nc2nnnn2CCO)c([N+](=O)[O-])c1` the figure was inactive: 4240.
The result for `CCCC1OP(=O)(Nc2ccccc2)OCC1CC` (stereo not drawn) reads inactive: 4260; that for `O=C(/C=C/c1ccccc1)OC1CN2CCC1CC2` (stereo not drawn), inactive: 5620.
Take `CC1CCC(C(C)C)C(OP(=O)(Nc2ccccn2)c2ccccc2)C1` (stereo not drawn): the fluorescence intensity was inactive: 3460.
With `Cc1ccc(C(=O)OC2CN3CCC2CC3)cc1` (stereo not drawn) the figure was inactive: 3050; with `Cc1nn(-c2ccccc2)c2c1P(=O)(N1CCOCC1)N(C)C(c1ccccc1)=N2` (stereo not drawn), inactive: 4430.
With `COc1cc(C2NCCC3(OCCO3)C2(C)C)cc(OC)c1OC.O=[N+]([O-])c1cc([N+](=O)[O-])c(O)c([N+](=O)[O-])c1` (stereo not drawn) the figure was inactive: 2480; with `CCCOc1ccc(NP(C)(=O)Oc2ccc(Cl)cc2)cc1` (stereo not drawn), inactive: 5420; with `CP(=O)(Nc1ccc(SC(F)(F)F)cc1)Oc1ccccc1` (stereo not drawn), inactive: 2530.
The result for `Nc1cccc([As](=O)(O)c2ccccc2)c1` reads inactive: 4540.
As to `COc1ccc(-c2ccccn2)cc1.O=[N+]([O-])c1cc([N+](=O)[O-])c(O)c([N+](=O)[O-])c1`, the fluorescence intensity was inactive: 6340.
With `O=[As](O)(c1cccs1)c1cccs1` the figure was inactive: 3280.
With `Cc1ccc(OCC(=O)OC2CN3CCC2CC3)cc1` (stereo not drawn) the figure was inactive: 4360; with `NS(=O)(=O)c1cccc(NC(=O)COC(=O)C(O)(c2ccccc2)c2ccccc2)c1`, inactive: 4000; with `COc1ccccc1OP(C)(=O)Nc1c(C)cccc1C` (stereo not drawn), inactive: 4200.
With `CN1CCCCC1COC(=O)C1(O)c2ccccc2CCc2ccccc21` (stereo not drawn) the figure was inactive: 2050.
Consider `O=P1(Nc2ncccn2)COc2ccccc2OC1`, for which the fluorescence intensity was inactive: 9270.
Take `CC(C)(C)C(=O)NC(Sc1ncccn1)C(Cl)(Cl)Cl` (stereo not drawn): the fluorescence intensity was inactive: 4210.
As to `O=P1(N(CCCl)CCCl)NCCC(C(F)(F)F)O1` (stereo not drawn), the fluorescence intensity was inactive: 3870.
`CN(Cc1cccnc1)C(=O)COc1ccc(Cl)c(Cl)c1.O=[N+]([O-])c1cc([N+](=O)[O-])c(O)c([N+](=O)[O-])c1`: the fluorescence intensity is inactive: 4310.
The result for `O=[N+]([O-])c1cc([N+](=O)[O-])c(-n2nnc3ccccc32)c([N+](=O)[O-])c1` reads inactive: 3490; that for `CCOP(=O)(NC(=NC(C)c1ccccc1)NC(C)c1ccccc1)OCC` (stereo not drawn), inactive: 3360; that for `Nc1ccc(CCCCOc2ccccc2)cc1.O=[N+]([O-])c1cc([N+](=O)[O-])c(O)c([N+](=O)[O-])c1`, inactive: 6150.
The result for `O=P1(Nc2ccccn2)COc2ccccc2OC1` reads inactive: 3460.
